Laboratory results reported in PMC11477194, “3-Alkoxy-1-Benzyl-5-Nitroindazole Derivatives Are Potent Antileishmanial Compounds” (International Journal of Molecular Sciences, 2024).

How the values were obtained:
Type in all cases: cell-based
[1] = tested on: L. infantum promastigotes; test: Susceptibility assay in promastigotes, L. infantum; conditions: selectivity index for promastigotes, CC50/IC50, L. infantum
From the text: (§1) The strains used in this research were MHOM/BR/77/LTB0016 of L. amazonensis from the Pedro Kouri Institute of Tropical Medicine Cuba strains collection, MHOM/FR/78/LEM75 of L. infantum from the Department of Parasitology, Faculty of Pharmacy of the Complutense University of Madrid Spain, and MNYC/BZ/62/M379 of L. mexicana from the Laboratory of Molecular Immunobiochemistry and Heart Diseases UNAM-INC Mexico Research Unit. The parasites were obtained from the skin lesions of previously infected BALB/c mice and maintained at 26 °C in Schneider medium (SIGMA, St. Louis, MO, USA) and supplemented with antibiotics (penicillin sodium 200 IU/mL and streptomycin 200 μg/mL SIGMA, St. Louis, MO, USA) and 10% fetal bovine serum (FBS, SIGMA, St. Louis, MO, USA), and inactivated with heat (56 °C, 30 min). The promastigotes, once isolated, were kept in the exponential multiplication phase by successive subcultures every 3 or 4 days until the time of use.
(§2) Susceptibility assay in promastigotes: Promastigotes culture in the exponential growth phase were seeded in 96-well plates (10^6 parasites/mL) at a final volume of 200 μL/well. Compounds were tested in serial 1/2.5 dilutions (130–0.2 μM). The treated cultures were incubated for 72 h at 26 °C.
(§3) Every concentration of the test compounds was assessed in quadruplicate.
(§4) Cell viability was assessed using the resazurin transformation method. After the incubation period, 20 μL of 3 mM resazurin solution prepared in sterile PBS was added to each well. Reading was performed at 540 nm excitation and 590 nm emission wavelengths after 8 h of incubation in a 96-well plate reader (SUMA®, Habana, Cuba). The mean fluorescence intensity was calculated for each concentration. From the mean values of fluorescence and the corresponding product concentrations, a non-linear fit to the Emax sigmoid model was performed, and the mean inhibitory concentrations (IC50), mean effective concentrations (EC50), and the mean cytotoxic concentration (CC50) were estimated. The selectivity index was calculated as SIp = CC50/IC50 and SIa = CC50/EC50 for the promastigote and amastigote stages, respectively.

[2] = tested on: L. amazonensis intracellular amastigotes; test: Intracellular amastigote assay, L. amazonensis; conditions: selectivity index for amastigotes, CC50/EC50, L. amazonensis
From the text: as §1
(§5) Intracellular amastigote assay: Macrophages were seeded in 96-well plates at an initial density of 10^5 cells/mL in a final volume of 200 µL per well. After 2 h of incubation at 33 °C and 5% CO2, the cell monolayer was infected with a culture of promastigotes in the stationary phase of growth at a ratio of 10:1 (promastigotes: macrophages) and incubated under the same conditions for 4 h. The compounds were tested in serial dilutions of 1/2.5 (15–0.02 μM). The treated cultures were then incubated for 48 h under similar conditions. After incubation, the RPMI medium was removed and replaced with Schneider’s medium. Cultures were incubated for 72 h at 26 °C to allow the surviving amastigotes to transform into promastigotes and replicate.
as §3, §4

[3] = tested on: L. infantum intracellular amastigotes; test: Intracellular amastigote assay, L. infantum; conditions: selectivity index for amastigotes, CC50/EC50, L. infantum
From the text: as §1, §5, §3, §4

[4] = tested on: L. amazonensis promastigotes; test: Susceptibility assay in promastigotes, L. amazonensis; conditions: selectivity index for promastigotes, CC50/IC50, L. amazonensis
From the text: as §1, §2, §3, §4

[5] = tested on: L. mexicana promastigotes; test: Susceptibility assay in promastigotes, L. mexicana; conditions: selectivity index for promastigotes, CC50/IC50, L. mexicana
Protocol: The strains used in this research were MHOM/BR/77/LTB0016 of L. amazonensis from the Pedro Kouri Institute of Tropical Medicine Cuba strains collection, MHOM/FR/78/LEM75 of L. infantum from the Department of Parasitology, Faculty of Pharmacy of the Complutense University of Madrid Spain, and MNYC/BZ/62/M379 of L. mexicana from the Laboratory of Molecular Immunobiochemistry and Heart Diseases UNAM-INC Mexico Research Unit. […]
as §3
as §4, with “After the incubation period, 20 μL of 3 mM resazurin solution prepared in sterile PBS was added to each well.” left out

Structure (SMILES) | SIp [1] | SIa [2] | SIa [3] | SIp [4] | SIp [5]
C[C@@H]1[C@H](O)[C@@H](C)/C=C/C=C/C=C/C=C/C=C/C=C/C=C/[C@H](O[C@@H]2O[C@H](C)[C@@H](O)[C@H](N)[C@@H]2O)C[C@@H]2O[C@](O)(C[C@@H](O)C[C@@H](O)[C@H](O)CC[C@@H](O)C[C@@H](O)CC(=O)O[C@H]1C)C[C@H](O)[C@H]2C(=O)O [AmB, Amphotericin B, reference compound] | 21 | 170 | 10 | 193 | 126
O=[N+]([O-])c1ccc2c(c1)c(OCCN1CCCCC1)nn2Cc1ccccc1 [NV7] |  | 5 | 2 |  | 
NCCCOc1nn(Cc2ccccc2)c2ccc([N+](=O)[O-])cc12 [NV9] |  |  | 5 |  | 
CNCCOc1nn(Cc2ccccc2)c2ccc([N+](=O)[O-])cc12 [NV13] |  | 11 | 4 |  | 
CN(C)CCOc1nn(Cc2ccccc2)c2ccc([N+](=O)[O-])cc12 [NV4] |  | 5 |  |  | 
O=[N+]([O-])c1ccc2c(c1)c(OCCBr)nn2Cc1ccccc1 [NV11] | 0.2 |  |  |  | 
O=[N+]([O-])c1ccc2c(c1)c(OCCCCCN1CCCCC1)nn2Cc1ccccc1 [NV16] | 15 |  |  |  | 
NCCCCCOc1nn(Cc2ccccc2)c2ccc([N+](=O)[O-])cc12 [NV17] |  |  | 1 | 8 | 
CNCCCCCOc1nn(Cc2ccccc2)c2ccc([N+](=O)[O-])cc12 [NV15] | 4.4 |  |  | 4 | 
O=[N+]([O-])c1ccc2c(c1)c(OCCCCCBr)nn2Cc1ccccc1 [NV12] | 0.1 |  |  | 2 | 
CN(C)CCCCCOc1nn(Cc2ccccc2)c2ccc([N+](=O)[O-])cc12 [NV14] | 3 |  |  | 6 | 
